Measured values taken from patent US10077287B2 (priority 2014, dated 2018).

Test: general procedure: solution-phase peptide synthesis; HATU/DIEA

## 1-((S)-3-(4-aminophenyl)-2-(2-((5R,7R,10S)-10-((S)-sec-butyl)-7-isopropyl-12-((R)-1-methylpiperidin-2-yl)-3,9,12-trioxo-8-propyl-4-oxa-2,8,11-triazadodecan-5-yl)thiazole-4-carboxamido)propyl)cyclopropanecarboxylic acid
Late stage modification step
  step yield: 47%

## (S)-4-(2-((3R,6S,9R,11R)-6-((S)-sec-butyl)-3,9-diisopropyl-4,7,13-trioxo-8-propyl-12-oxa-2,5,8-triazatetradecan-11-yl)thiazole-4-carboxamido)-2,2-dimethyl-5-phenylpentanoic acid
Late stage modification step, TFA salt
  step yield: 62%

## (S)-5-(4-aminophenyl)-4-(2-((5R,7R,10S)-10-((S)-sec-butyl)-7-isopropyl-12-((R)-1-methylpiperidin-2-yl)-3,9,12-trioxo-8-propyl-4-oxa-2,8,11-triazadodecan-5-yl)thiazole-4-carboxamido)-2,2-dimethylpentanoic acid
Late stage modification step
  step yield: 37%

## (S)-5-(4-nitrophenyl)-4-(2-((5R,7R,10S)-10-((S)-sec-butyl)-7-isopropyl-12-((R)-1-methylpiperidin-2-yl)-3,9,12-trioxo-8-propyl-4-oxa-2,8,11-triazadodecan-5-yl)thiazole-4-carboxamido)-2,2-dimethylpentanoic acid
Coupling step
  step yield: 56%

## methyl 1-((S)-3-(4-aminophenyl)-2-(2-((5R,7R,10S)-10-((S)-sec-butyl)-7-isopropyl-12-((R)-1-methylpiperidin-2-yl)-3,9,12-trioxo-8-propyl-4-oxa-2,8,11-triazadodecan-5-yl)thiazole-4-carboxamido)propyl)cyclopropanecarboxylate
Late stage modification step
  step yield: 59%
